Molecular target: CO17 B NA (recombinant neuraminidase head of B/Colorado/06/2017, B/Victoria-lineage) (Influenza B virus B/Colorado/06/2017)

CO17 B NA (recombinant neuraminidase head of B/Colorado/06/2017, B/Victoria-lineage)
stoichiometry N: 4
